Pooled drug test results. Numbers come from NIAID ChemDB, via PubChem.

Common to all: target-level tests; species: HIV-1; protein: Reverse transcriptase; measure: IC50

Rows are shuffled and stem from different studies. ICn is the concentration giving n% inhibition. An empty or dashed field is not shown.

compound | strain or isolate | changes | read by | value
CCc1c(Sc2ccccn2)n(COCc2ccccc2)c(=O)[nH]c1=O |  | RT-L100I |  | 8 µM
O=C(O)CP(=O)(O)O |  |  | nucleotide incorporation | 530 µM
Fc1cccc(F)c1COCc1nc2ccccc2n1Cc1c(F)cccc1F |  |  |  | >10 µM
CO[C@H]1/C=C/O[C@@]2(C)Oc3c(C)c(O)c4c(c3C2=O)C(=O)C(SCCCCCCCOC(=O)CCCC(=O)OC[C@H]2O[C@@H](n3cc(C)c(=O)[nH]c3=O)C[C@@H]2N=[N+]=[N-])=C(NC(=O)/C(C)=C\C=C\[C@H](C)[C@H](O)[C@@H](C)[C@@H](O)[C@@H](C)[C@H](OC(C)=O)[C@@H]1C)C4=O | IIIB |  | RT activity | ~300 µM
O=C(O[C@@H]1Cc2c(O)cc(O)cc2O[C@@H]1c1ccc(O)c(O)c1)c1cc(O)c(O)c(O)c1 |  |  |  | 0.02 µM
CO[C@H]1/C=C/O[C@@]2(C)Oc3c(C)c(O)c4c(c3C2=O)C(=O)C(SCCOC(=O)CCCC(=O)OC[C@@H]2O[C@H](n3cc(C)c(=O)[nH]c3=O)C[C@H]2N=[N+]=[N-])=C(NC(=O)/C(C)=C\C=C\[C@H](C)[C@H](O)[C@@H](C)[C@@H](O)[C@@H](C)[C@H](OC(C)=O)[C@@H]1C)C4=O | IIIB |  | RT activity | ~300 µM
CC(C)=CCN1C(=O)c2cccn2-c2ccc(Cl)cc2S1(=O)=O | IIIB |  | RT activity | 1.4 µM
O=C(O)P(=O)(O)Oc1ccccc1 |  |  | nucleotide incorporation | 6.9 µM
C=C(CC[C@@H](C)[C@H]1CC[C@@]2(C)C3CC[C@H]4C(C)(C)[C@@H](OC(=O)/C=C/c5ccc(O)c(OC)c5)CC[C@@]45C[C@@]35CC[C@]12C)C(C)C |  |  | nucleotide incorporation | 1.9 µM
CC(=O)N1CCN(C(=O)c2cc(O)c(O)c(O)c2)CC1 | BH10 |  | ELISA / nucleotide incorporation | >50 µM
CC(C)Nc1cccnc1N1CCN(C(=O)c2cc3cc4c(cc3[nH]2)OCO4)CC1 | IIIB |  |  | 0.44 µM
CCOc1cccc(C2(CC)Oc3ccccc3-n3cccc3C2=O)c1 |  | RT-V106A | nucleotide incorporation / radiometric | 4.8 µM
CC(C)=CCN1C(=O)Nc2ccc(Cl)cc2S1(=O)=O | IIIB | RT-L100I | RT activity | >30 µM
Cc1ncc(COP(=O)(O)O)c(C=O)c1O |  |  |  | 192 µM
CCC1(c2cccc(Cl)c2)Oc2ccccc2-n2cccc2C1=O |  | RT-L100I | nucleotide incorporation / radiometric | 0.6 µM
C=C(C)[C@@H]1CC[C@]2(C)CCC3(C)[C@H](CC[C@@H]4[C@@]5(C)CC[C@H](O)C(C)(C)[C@@H]5CC[C@]43C)[C@@H]12 |  |  | nucleotide incorporation | 3.8 µM
COc1cc2c(ccc3c4cc(OC)c(OC)cc4c[n+](C)c23)cc1O |  |  | nucleotide incorporation | 10 µg/mL
CN(C)C(=O)N1CCN(C(=O)c2cc(O)c(O)c(O)c2)CC1 | BH10 |  | ELISA / nucleotide incorporation | >50 µM
C/C=C/c1ccc2c(c1)[C@H](C)[C@@H](c1ccc(O)cc1)O2 |  |  | RT activity / radiometric | 323.2 µM
Fc1cccc(F)c1Cn1c(-c2c(F)cccc2F)nc2ccccc21 |  |  |  | ~10 µM
CCC1(c2ccc(CCc3ccccc3)cc2)Oc2ccccc2-n2cccc2C1=O |  | RT-K103N | nucleotide incorporation / radiometric | >10 µM
CCc1c([Se]c2ccccc2)n(COCc2ccccc2)c(=O)[nH]c1=O |  | RT-T181C | RT activity | 2.4 µM
CO[C@H]1/C=C/O[C@@]2(C)Oc3c(C)c(O)c4c(c3C2=O)C(=O)C(SCCOC(=O)CCC(=O)OC[C@H]2O[C@@H](n3cc(C)c(=O)[nH]c3=O)C[C@@H]2N=[N+]=[N-])=C(NC(=O)/C(C)=C\C=C\[C@H](C)[C@H](O)[C@@H](C)[C@@H](O)[C@@H](C)[C@H](OC(C)=O)[C@@H]1C)C4=O | IIIB |  | RT activity | 145 µM
CC(C)=CCN1Cc2cccc3[nH]c(=S)n(c23)C[C@@H]1C | IIIB |  | nucleotide incorporation | 1.1 µM
Cc1occc1C(=S)Nc1ccc(Cl)c(/C=N/OC(C)(C)C)c1 |  | RT-P236L |  | 4.1 µM
CC(C)=CCN1Cc2cccc3[nH]c(=S)n(c23)C[C@@H]1C | RT-WT |  | RT activity | 0.9 µM
COc1ccc(C=O)cc1O |  |  | RT activity / nucleotide incorporation / fluorescence | >100 µM
Cc1cn([C@@H]2O[C@H](CO[Si](C)(C)C(C)(C)C)C3(OS(=O)(=O)C=C3N)[C@H]2O[Si](C)(C)C(C)(C)C)c(=O)n(C)c1=O | IIIB |  | nucleotide incorporation | 1.1 µM
CC(=O)Nc1ccc(S(=O)(=O)N2CCN(C(=O)c3cc(O)c(O)c(O)c3)CC2)cc1 | BH10 |  | ELISA / nucleotide incorporation | >50 µM
CC(C)=CCN1C(C)C(=O)Nc2ccc(Cl)cc2S1(=O)=O | IIIB | RT-L100I | RT activity | >30 µM
CCc1c(Sc2ccccc2)n(COCc2ccccc2)c(=O)[nH]c1=O |  | RT-L100I | RT activity | 0.4 µM
O=C(O)c1cc2cc(O)c(O)cc2[nH]1 |  |  | RT activity / fluorescence | 82 µM
O=C(O)P(=O)(O)Oc1ccc2c(c1)CCC2 |  |  | nucleotide incorporation | 3.6 µM
Cc1c([C@@H](C)c2c(F)cccc2F)nc(SC2CCCC2)[nH]c1=O |  |  |  | 30 µM
Cc1occc1C(=S)Nc1ccc(Cl)c(/C=N/OC(C)(C)C)c1 | IIIB |  | RT activity | 0.148 µM
Cc1ccc(OP(=O)(O)C(=O)O)cc1 |  |  | nucleotide incorporation | 19.2 µM
COc1ccc(C=O)c(O)c1 |  |  | RT activity / nucleotide incorporation / fluorescence | >100 µM
CS(=O)(=O)N1CCN(C(=O)c2cc(O)c(O)c(O)c2)CC1 | BH10 |  | ELISA / nucleotide incorporation | >50 µM
C[C@H]1[C@H](C)CC[C@]2(CO)CC[C@]3(C)C(=CC[C@@H]4[C@@]5(C)CC[C@H](O)C(C)(C)[C@@H]5CC[C@]43C)[C@H]12 |  |  | nucleotide incorporation | 9.5 µM
COc1ccc(S(=O)(=O)N2CCC(NC(=O)c3cc(O)c(O)c(O)c3)CC2)cc1 | BH10 |  | ELISA / nucleotide incorporation | 46.7 µM
CCOc1ccccc1N1CCN(C(=O)c2cc3ccccc3[nH]2)CC1 | IIIB | RT-P236L |  | >50 µM
Cc1c(Sc2ccccc2)n(COCCO)c(=O)[nH]c1=O |  | RT-V108I |  | ~1 µM
C=C(/C=C/c1ccc(O)c(OC)c1)O[C@H]1CCC23CC24CC[C@]2(C)[C@@H]([C@H](C)CCC=C(C)C)CC[C@@]2(C)[C@@H]4CC[C@H]3C1(C)C |  |  | nucleotide incorporation | 2.2 µM
O=C(NCCCN1CCN(CCCNC(=O)c2cc3cc(O)c(O)cc3[nH]2)CC1)c1cc2cc(O)c(O)cc2[nH]1 |  |  | RT activity / fluorescence | >100 µM
Cc1cccc2c1nc(-c1c(F)cccc1F)n2Cc1c(Cl)cccc1Cl |  |  |  | ~10 µM
c1cnc2c(c1)ccc1cccnc12 |  |  | nucleotide incorporation | 343 µM
CC[C@H](CC[C@@H](C)[C@H]1CC[C@H]2[C@@H]3CC[C@H]4C[C@@H](O)CC[C@]4(C)[C@H]3CC[C@]12C)C(C)C |  |  | nucleotide incorporation | 3.9 µM
CC(C)=CCOc1cc(NC(=S)c2ccoc2C)ccc1Cl |  | RT-E138K |  | 2.1 µM
O=C(NC1CCN(C(=O)c2ccc(F)cc2)CC1)c1cc(O)c(O)c(O)c1 | BH10 |  | ELISA / nucleotide incorporation | >320.5 µM
Cc1cn([C@@H]2O[C@H](CO[Si](C)(C)C(C)(C)C)C3(OS(=O)(=O)C=C3N)[C@H]2O[Si](C)(C)C(C)(C)C)c(=O)n(C)c1=O | IIIB |  | RT activity | 3 µM
CCOC(=O)P(=O)(OCC)OCC |  |  | nucleotide incorporation | 44 µM
CC(C)=CCN1Cc2cccc3[nH]c(=S)n(c23)C[C@@H]1C | IIIB |  | nucleotide incorporation | 0.525 µM
CC(=O)c1ccc(C)cc1NC(C(N)=O)c1c(Cl)cccc1Cl | IIIB |  | RT activity | 1 µM
CCC1(c2ccc(COc3ccccc3)cc2)Oc2ccccc2-n2cccc2C1=O |  | RT-K103N | nucleotide incorporation / radiometric | 0.4 µM
C=C(CC[C@@H](C)[C@H]1CC[C@@]2(C)[C@@H]3CC[C@H]4C(C)(C)[C@@H](O)CC[C@]4(C)C3=CC[C@]12C)C(C)C |  |  | nucleotide incorporation | >45 µM
CCOc1ccccc1N1CCN(C(=O)c2cc3cc4c(cc3[nH]2)OCO4)CC1 | IIIB |  |  | 5.6 µM
COc1ccccc1C(=O)N1CCC(NC(=O)c2cc(O)c(O)c(O)c2)CC1 | BH10 |  | ELISA / nucleotide incorporation | 39.9 µM
Cc1cc(S(N)(=O)=O)ccc1NC(=O)COc1ccc(Cl)cc1C(=O)c1cc(Cl)cc(C#N)c1 |  | RT-V108I | fluorescence | 0.002 µM
CC1(C)CC[C@]2(C)CC[C@]3(C)C(=CC[C@@H]4[C@@]5(C)CC[C@H](O)C(C)(C)[C@@H]5CC[C@]43C)[C@@H]2C1 |  |  | nucleotide incorporation | 4.7 µM
CC(C)=CCN1Cc2cccc3[nH]c(=S)n(c23)C[C@@H]1C |  |  | nucleotide incorporation | 10 µM
CNc1ccc(Cl)cc1S(=O)(=O)c1ccccc1[N+](=O)[O-] |  | RT-P236L |  | 0.05 µM
C/C=C/CSc1cc(NC(=S)c2ccsc2C)ccc1Cl |  | RT-Y188L |  | >100 µM
Cc1cccc2c1nc(C(C)C)n2Cc1c(F)cccc1F |  |  |  | >10 µM
COc1ccc2c(c1)N(C(=O)OC(C)C)[C@@H](CSC)C(=S)N2 |  | RT-G190A | scintillation proximity / radiometric | 0.71 µM
O=[N+]([O-])c1ccc2c(c1)nc(-c1c(F)cccc1F)n2Cc1c(F)cccc1F |  |  |  | >10 µM
COc1ccccc1N1CCN(C(=O)c2cc3ccccc3[nH]2)CC1 | IIIB |  | RT activity | 65 µM

For reference, 9 entries again:

| compound | strain or isolate | changes | read by | value |
|---|---|---|---|---|
| COc1cc2c(ccc3c4cc(OC)c(OC)cc4c[n+](C)c23)cc1O |  |  | nucleotide incorporation | 10 µg/mL |
| Cc1cn([C@@H]2O[C@H](CO[Si](C)(C)C(C)(C)C)C3(OS(=O)(=O)C=C3N)[C@H]2O[Si](C)(C)C(C)(C)C)c(=O)n(C)c1=O | IIIB |  | RT activity | 3 µM |
| c1cnc2c(c1)ccc1cccnc12 |  |  | nucleotide incorporation | 343 µM |
| CS(=O)(=O)N1CCN(C(=O)c2cc(O)c(O)c(O)c2)CC1 | BH10 |  | ELISA / nucleotide incorporation | >50 µM |
| Cc1occc1C(=S)Nc1ccc(Cl)c(/C=N/OC(C)(C)C)c1 |  | RT-P236L |  | 4.1 µM |
| CCOc1ccccc1N1CCN(C(=O)c2cc3cc4c(cc3[nH]2)OCO4)CC1 | IIIB |  |  | 5.6 µM |
| CC1(C)CC[C@]2(C)CC[C@]3(C)C(=CC[C@@H]4[C@@]5(C)CC[C@H](O)C(C)(C)[C@@H]5CC[C@]43C)[C@@H]2C1 |  |  | nucleotide incorporation | 4.7 µM |
| COc1ccc2c(c1)N(C(=O)OC(C)C)[C@@H](CSC)C(=S)N2 |  | RT-G190A | scintillation proximity / radiometric | 0.71 µM |
| CN(C)C(=O)N1CCN(C(=O)c2cc(O)c(O)c(O)c2)CC1 | BH10 |  | ELISA / nucleotide incorporation | >50 µM |